Data published in US20130316951A1.

T1: platelet glycoprotein (GP) IIb/IIIa on platelets of mouse platelet rich plasma (mouse), Q9QUM0
T1 chain 1: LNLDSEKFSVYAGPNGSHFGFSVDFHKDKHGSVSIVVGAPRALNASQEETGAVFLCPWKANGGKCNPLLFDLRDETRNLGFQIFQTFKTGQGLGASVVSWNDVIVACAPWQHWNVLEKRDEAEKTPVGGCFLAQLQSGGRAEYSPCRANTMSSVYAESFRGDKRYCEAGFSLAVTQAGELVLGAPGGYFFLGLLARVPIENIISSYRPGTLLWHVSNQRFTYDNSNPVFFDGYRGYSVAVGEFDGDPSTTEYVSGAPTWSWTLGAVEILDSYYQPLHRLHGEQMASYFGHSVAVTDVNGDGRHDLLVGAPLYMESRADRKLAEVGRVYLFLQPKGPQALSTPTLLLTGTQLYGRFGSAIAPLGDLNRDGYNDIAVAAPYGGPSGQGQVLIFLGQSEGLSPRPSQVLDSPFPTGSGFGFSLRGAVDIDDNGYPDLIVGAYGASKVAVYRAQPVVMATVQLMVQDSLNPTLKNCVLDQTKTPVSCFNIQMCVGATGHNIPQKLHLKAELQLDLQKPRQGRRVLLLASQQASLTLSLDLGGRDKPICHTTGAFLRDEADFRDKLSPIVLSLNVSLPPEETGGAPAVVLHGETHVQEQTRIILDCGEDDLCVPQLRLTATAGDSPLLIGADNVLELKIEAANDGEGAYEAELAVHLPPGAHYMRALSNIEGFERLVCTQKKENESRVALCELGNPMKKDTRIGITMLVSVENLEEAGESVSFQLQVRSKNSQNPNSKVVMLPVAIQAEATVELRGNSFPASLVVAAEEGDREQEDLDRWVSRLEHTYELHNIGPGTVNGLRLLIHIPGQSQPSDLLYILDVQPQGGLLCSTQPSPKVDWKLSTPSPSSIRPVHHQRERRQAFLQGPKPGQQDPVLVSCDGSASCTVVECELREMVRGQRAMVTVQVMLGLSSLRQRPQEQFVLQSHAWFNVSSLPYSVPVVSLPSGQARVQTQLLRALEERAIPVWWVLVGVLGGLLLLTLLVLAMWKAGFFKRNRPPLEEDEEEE
T1 chain 2: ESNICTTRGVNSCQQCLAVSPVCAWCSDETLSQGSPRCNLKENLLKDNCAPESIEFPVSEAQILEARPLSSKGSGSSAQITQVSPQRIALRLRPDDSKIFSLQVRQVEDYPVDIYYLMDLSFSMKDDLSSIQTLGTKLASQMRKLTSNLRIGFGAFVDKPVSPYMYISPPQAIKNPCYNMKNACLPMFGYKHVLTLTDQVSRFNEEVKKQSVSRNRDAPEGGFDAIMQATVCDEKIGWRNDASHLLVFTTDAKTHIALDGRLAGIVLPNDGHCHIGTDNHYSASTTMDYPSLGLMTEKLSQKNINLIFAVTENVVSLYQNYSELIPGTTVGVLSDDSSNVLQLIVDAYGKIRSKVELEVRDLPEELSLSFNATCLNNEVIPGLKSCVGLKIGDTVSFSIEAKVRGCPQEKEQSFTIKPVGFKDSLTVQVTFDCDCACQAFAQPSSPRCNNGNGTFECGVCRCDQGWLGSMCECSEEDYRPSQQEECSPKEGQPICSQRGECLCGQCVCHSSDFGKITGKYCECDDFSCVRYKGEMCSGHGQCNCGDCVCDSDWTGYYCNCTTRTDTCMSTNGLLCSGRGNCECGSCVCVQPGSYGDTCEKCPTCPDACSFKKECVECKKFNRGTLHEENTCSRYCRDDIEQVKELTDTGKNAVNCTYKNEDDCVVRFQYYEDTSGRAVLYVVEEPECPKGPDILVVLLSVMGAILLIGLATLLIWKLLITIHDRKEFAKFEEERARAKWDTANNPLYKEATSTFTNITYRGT

B1: saxatilin derivative LS3 (peptide)
chain: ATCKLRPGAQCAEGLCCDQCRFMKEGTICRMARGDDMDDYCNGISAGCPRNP
modifications: not checked
B2: saxatilin derivative XL1 (peptide)
chain: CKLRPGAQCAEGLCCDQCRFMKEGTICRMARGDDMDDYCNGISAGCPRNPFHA
modifications: not checked
B3: saxatilin derivative LS2 (peptide)
chain: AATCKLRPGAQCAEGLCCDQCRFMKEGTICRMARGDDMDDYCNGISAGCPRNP
modifications: not checked

Target: T1, platelet glycoprotein (GP) IIb/IIIa on …
Assay: cell-based or functional assay

B1 and B2 are within 1.5-fold of each other in IC50 of inhibition of ADP-induced platelet aggregation, mouse PRP, aggregometer: 1 µM for the first, 1.01 µM for the second.

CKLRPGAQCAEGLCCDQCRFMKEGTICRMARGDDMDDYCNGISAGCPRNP (modifications not checked) [saxatilin derivative XL3] and B3 are within 1.5-fold of each other in IC50 of inhibition of ADP-induced platelet aggregation, mouse PRP, aggregometer: 1.06 µM for the first, 1.01 µM for the second.
